PubChem BioAssay AID504761 – Drosophila RNAi Screening Center | 2011
Test: 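Fly genes whose silencing reduces dengue virus type 2 infection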 (primary screen). Cell system: D.Mel-2 cells from Drosophila. Knock-down reagent: long dsRNA against Drosophila genes. Conditions: infection with dengue virus type 2; dose and infection time not stated. Measured: 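Cells stained for dengue envelope protein and imaged; percent of infected cells per well on duplicate plates, ranked by infection, with stained nuclei counted for cell number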. Reading the numbers: infection score: higher = more virus-infected cells; cell count: higher = more cells in the well. Active means: 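Very low infection ranking in both replicate wells (chance probability at most 0.065), then a retest showing infection dropped 1.5-fold or more at p below 0.05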. Calls: active = confirmed: knock-down lowers infection; inactive = not picked or not confirmed.
The screen tested about 22,000 reagents; shown is a random part of those with a known target gene and a result. Of all reagents, 116 (0.52%) are marked active. 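Calls depend on retest data that are not deposited; infection was ranked per plate without normalising between plates; the unit of the infection score is not given.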 Raw values vary from plate to plate and are shown uncorrected. Unmarked entries are inactive. Reagents against one gene are numbered here. A plus sign joins genes that one reagent is predicted to hit. Not all columns of the deposit are shown. Not stated in the record: the amount of reagent, the time to read-out.

Gene,reagent,"infection score, replicate 1","infection score, replicate 2","cell count, replicate 1"
Gr22f,1,15.1,10.9,6525
Gr22f,2,1.2,8.28,6318
Gpdh1,1,1.41,2.08,6308
Gpdh1,2,0.78,2.61,5800
CG33120,1,13.8,13.6,6627
CG9213,1,3.76,1.92,6272
CG9213,2,4.24,4.95,6697
CG7460,1,2.14,1.15,5986
CG7460,2,9.37,28.6,1355
Dhc62B,1,3.97,0.97,5866
CanB,1,5.41,6.51,6061
CanB,2,2.83,,1414
Aprt,1,3.71,5.44,6245
CAH16,1,6.03,2.11,3966
CAH16,2,9.77,15.8,6738
CG9010,1,6.68,6.85,6582
Lis-1,1,25.2,28.2,6153
Ptp61F,1,2.37,3.5,5108
Ptp61F,2,4.52,0.21,1084
CG8777,1,8.48,10.7,5864
Ubc10,1,15.3,21.5,6217
Ubc10,2,3.34,1.54,5600
Mst33A,1,4,7.69,6556
Mst33A,2,2.57,3.37,7204
CG14100,1,1.51,5.53,6706
CG4660,1,13.2,3.96,5744
Dhc64C,1,3.4,5.63,6058
Dhc64C,2,3.96,5.07,4244
CG14929 + CG4970 + CG14930,1,7.73,8.13,6517
CG13204,1,2.91,3.98,6504
CG13204,2,4.06,11.5,6696
Als2,1,6.47,11.4,6508
CG12107,1,16.9,21.8,6490
eIF3g2,1,2.43,1.28,6710
eIF3g2,2,10.5,13.3,2538
Sirt6,1,2.84,6.43,6486
Sirt6,2,27.3,8.85,5144
CG32638,1,1.88,1.63,6122
CG31248,1,5.22,,6818
CG42789,1,8.9,5.14,6700
lobo,1,11.5,8.28,6926
lobo,2,6.17,7.57,5833
lobo,3,,1.15,387
Nha1,1,4.81,16.1,5946
Pkg21D,1,1.61,2.78,6072
Pkg21D,2,6.14,12.2,1385
msl-3,1,1.53,0.87,5962
HmgZ,1,0.56,0.03,6408
HmgZ,2,3.85,6.3,5978
CG32554,1,5.58,6.36,6507
CG32554,2,26,5.45,5363
CG10405,1,0.94,0.81,6502
CG34354,1,7.32,1.67,6015
CG34354,2,2.01,1.14,6126
CG5276,1,8.4,16.9,5406
CG18635,1,,1.74,425
CG18635,2,6.11,0.99,5567
CG11816,1,0.3,3.73,334
CG11816,2,3.58,1.63,6641

3 consecutive entries already listed, quoted:
Gene,reagent,"infection score, replicate 1","infection score, replicate 2","cell count, replicate 1"
CG32638,1,1.88,1.63,6122
CG31248,1,5.22,,6818
CG42789,1,8.9,5.14,6700
